PubChem BioAssay AID504761, Drosophila RNAi Screening Center, 2011
Assay: 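Insect host genes that dengue virus relies on to spread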 (primary screen). Cells: D.Mel-2 cells from Drosophila. Reagent: long dsRNA against Drosophila genes. Conditions: infection with dengue virus type 2; dose and infection time not stated. Measurement: 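Per well on two replicate plates, imaging gave the percent of cells positive for viral envelope protein, ranked by infection, and a nuclear count of cells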. Scale: infection score: higher = more virus-infected cells; cell count: higher = more cells in the well. Rule for the call: 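Very low infection ranking in both replicate wells (chance probability at most 0.065), then a retest showing infection dropped 1.5-fold or more at p below 0.05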. Calls: active = confirmed: knock-down lowers infection; inactive = not picked or not confirmed.
The deposit covers about 22,000 reagents; this is an unselected part of those that have a named target and a result. In the full data, 116 (0.52%) got an active call. 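Calls depend on retest data that are not deposited; infection was ranked per plate without normalising between plates; the unit of the infection score is not given.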 Raw values are not corrected between plates. Further read-outs or replicates are left out here. No sequences are given here. Not given: the amount of reagent, the time to read-out.

Depletion of Trap1 [DRSC05019] gave: infection score, replicate 1 = 7.99; cell count, replicate 1 = 6658; inactive.
CG5767 [DRSC06953] showed infection score, replicate 1 = 2.99; cell count, replicate 1 = 6752; inactive.
After knock-down of CG5767 [DRSC29980], the record shows infection score, replicate 1 = 19.6; cell count, replicate 1 = 6001; inactive.
For CG15219 [DRSC03715], the entry reads infection score, replicate 1 = 2.58; cell count, replicate 1 = 6580; inactive.
Against slif [DRSC11635] the deposit lists infection score, replicate 1 = 30.1; cell count, replicate 1 = 5347; inactive.
slif [DRSC27438] scored infection score, replicate 1 = 13.6; cell count, replicate 1 = 6482; inactive.
mip40 [DRSC06541] showed infection score, replicate 1 = 10.7; cell count, replicate 1 = 6270; inactive.
Depletion of RnrS [DRSC07533] gave: infection score, replicate 1 = 0.78; cell count, replicate 1 = 514; inactive.
After knock-down of RnrS [DRSC23541], the record shows infection score, replicate 1 = 7.44; cell count, replicate 1 = 1197; inactive.
With knock-down of Cdk1 [DRSC03504] the results were infection score, replicate 1 = 8.19; cell count, replicate 1 = 513; inactive.
CG31407 [DRSC12761] showed infection score, replicate 1 = 1.41; cell count, replicate 1 = 5877; inactive.
Silencing of eIF4E7 [DRSC17782] came out at: infection score, replicate 1 = 4.13; cell count, replicate 1 = 6222; inactive.
eIF4E7 [DRSC18623] showed infection score, replicate 1 = 0.92; cell count, replicate 1 = 6850; inactive.
After knock-down of CkIIalpha-i1 [DRSC11115] the results were infection score, replicate 1 = 1.37; cell count, replicate 1 = 5615; inactive.
After knock-down of CG3294 [DRSC00590], the record shows infection score, replicate 1 = 13.4; cell count, replicate 1 = 4343; inactive.
CG3294 [DRSC26228] showed infection score, replicate 1 = 5.2; cell count, replicate 1 = 6572; inactive.
With knock-down of Fib [DRSC04614], the record shows infection score, replicate 1 = 13.1; cell count, replicate 1 = 2067; inactive.
ATPsynE [DRSC15476] scored infection score, replicate 1 = 13.7; cell count, replicate 1 = 5326; inactive.
Silencing of ATPsynE [DRSC30103] came out at: infection score, replicate 1 = 8.89; cell count, replicate 1 = 6066; inactive.
With knock-down of Grl36a [DRSC21748], the screen gave infection score, replicate 1 = 15.2; cell count, replicate 1 = 6261; inactive.
CG8051 [DRSC20077] scored infection score, replicate 1 = 3.1; cell count, replicate 1 = 5190; inactive.
CG8051 [DRSC26855] scored infection score, replicate 1 = 3.65; cell count, replicate 1 = 6143; inactive.

Individual results from the list.
For “infection score, replicate 1”, CG8051 [DRSC26855] has 3.65
Under “Outcome”, slif [DRSC11635] shows inactive
For “infection score, replicate 1”, ATPsynE [DRSC30103] is entered as 8.89
CG5767 [DRSC06953], Outcome → inactive
